# Data as given in PubChem BioAssay AID624099 (ICCB-Longwood, 2012)
# Test: 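Host factors E2 relies on to silence an HPV18 LCR reporter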 (primary screen)
# System: human C33A cervical carcinoma cells (HPV-negative) stably expressing BPV1 E2 and an HPV18 LCR luciferase reporter
# Knock-down reagent: siRNA pool against human genes, 40 nM
# Duration: 72 h
# Measurement: 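Per-well luciferase luminescence, z-scored on each plate against the plate mean and SD with control wells left out, then averaged across three replicate plates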
# Direction: mean z-score and z-score: higher = stronger reporter signal, weaker E2 silencing
# Hit rule: 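Mean z ≥ 2 together with z ≥ 2 in two or more of the three replicates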
# The deposit covers about 21,000 reagents; below is a part drawn at random. Over the whole deposit, 497 (2.4%) were called active. 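Higher z means weaker E2 silencing; only reporter increases were scored, and knock-downs that hurt cell survival may mask genuine repressor factors.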 The numbers tell different reagents against one gene apart.
target gene,reagent,mean z-score,"z-score, replicate A","z-score, replicate B","z-score, replicate C",call
HCAR3,1,-1.25,-1.35,-1.34,-1.05,inactive
COL21A1,1,1.14,1.59,0.5,1.31,inactive
LOC401499 (retired record),1,-0.05,-0.23,0.13,-0.05,inactive
HOXA6,1,1.23,1.17,1.16,1.35,inactive
DFFB,1,1.31,1.35,1.48,1.09,inactive
PHYH,1,-1.35,-1.39,-1.2,-1.46,inactive
SAV1,1,0.7,0.57,0.74,0.8,inactive
ANAPC15,1,0.09,0.16,0.12,-0.01,inactive
ARV1,1,0.12,0.69,-0.1,-0.24,inactive
ZSCAN22,1,0.34,0.51,0.41,0.1,inactive
CHADL,1,1.1,1.14,1.01,1.16,inactive
TIGD4,1,0.56,0.19,0.84,0.64,inactive
GLCE,1,0.44,0.23,0.41,0.68,inactive
PGC,1,-0.94,-1.08,-1.04,-0.71,inactive
BEST1,1,0.85,1,0.7,0.84,inactive
SGSM1,1,0.21,-0.08,0.3,0.41,inactive
GSG1,1,0.82,0.6,0.82,1.04,inactive
LRRC63,1,0.79,0.88,0.53,0.96,inactive
GPER1,1,1.11,1.26,1.41,0.66,inactive
AP1S1,1,0.22,0.08,0.51,0.07,inactive
ZNF226,1,-0.91,-1.01,-0.8,-0.91,inactive
HIP1,1,0.82,0.93,0.81,0.71,inactive
KLHL4,1,-1.37,-1.25,-1.54,-1.31,inactive
KPNA4,1,1.57,1.77,1.72,1.21,inactive
HINT2,1,0.5,0.52,0.54,0.43,inactive
MAGEA2B,1,0.32,0.46,0.07,0.44,inactive
DCP1B,1,-0.18,-0.18,0.03,-0.4,inactive
LOC389288 (retired record),1,0.67,0.51,0.84,0.66,inactive
B2M,1,0.52,0.27,0.74,0.54,inactive
MPC2,1,-0.5,-0.68,-0.59,-0.23,inactive
KDM5C,1,7.83,7.41,7.99,8.09,active
ZNF674-AS1,1,-0.42,-0.35,-0.77,-0.15,inactive
SCARA5,1,-1.48,-1.55,-1.52,-1.38,inactive
LTBR,1,-2.04,-2.31,-1.77,-2.04,inactive
SFXN5,1,0.13,0.45,0.2,-0.27,inactive
LINC02946,1,-1.21,-1.43,-0.91,-1.3,inactive
TXNRD3,1,0.34,0.73,0.08,0.2,inactive
PPEF1,1,0.92,0.83,1.12,0.8,inactive
CCDC120,1,0.57,0.43,0.74,0.54,inactive
CENPE,1,0.08,0.09,-0.03,0.19,inactive
NELL2,1,0.39,0.12,0.39,0.66,inactive
DIMT1,1,0.41,0.32,0.4,0.51,inactive
PDZD11,1,-1.15,-0.81,-1.2,-1.42,inactive
LHX2,1,1.18,1.19,0.97,1.38,inactive
AGBL1,1,0.74,0.55,1.04,0.64,inactive
CD151,1,0.55,0.85,0.54,0.26,inactive
ERAP2,1,4.3,4.19,4.26,4.44,active
TOP3A,1,-0.76,-0.79,-0.76,-0.74,inactive
MYO1E,1,0.4,0.43,0.57,0.21,inactive
C20orf204,1,-0.76,-0.51,-0.96,-0.8,inactive
CPEB4,1,-0.16,-0.35,-0.05,-0.08,inactive
CYB5R2,1,0.16,0.05,0.22,0.2,inactive
TTC34,1,-0.44,-0.75,-0.1,-0.46,inactive
TTC34,2,1.21,1.29,1.3,1.03,inactive
VPS4A,1,0.12,0,0.38,-0.01,inactive
GKAP1,1,0.28,0.46,0.35,0.03,inactive
MESP2,1,-0.79,-1.01,-0.95,-0.4,inactive
OR5P3,1,-0.91,-0.64,-0.95,-1.12,inactive
CACNG7,1,-1.13,-1.26,-1.44,-0.69,inactive
PDGFA,1,-0.72,-0.8,-0.73,-0.64,inactive
CHST5,1,0.84,1.03,0.71,0.79,inactive
MPRIP,1,-0.42,-0.69,-0.3,-0.25,inactive
TNFRSF4,1,-0.89,-1,-0.93,-0.75,inactive
LRP6,1,2.11,2.16,2.14,2.03,active
ERCC4,1,-1.28,-1.68,-1.09,-1.06,inactive
PPY,1,0.55,0.67,0.52,0.45,inactive
CTDSPL2,1,-0.93,-0.67,-1.26,-0.86,inactive
SPCS1,1,0.43,0.19,0.7,0.4,inactive
PLAC9,1,-0.92,-0.86,-0.92,-0.98,inactive
PROSER3,1,1.9,1.75,2.1,1.86,inactive
ENPP2,1,0.57,0.11,0.83,0.76,inactive
RASL10A,1,-0.62,-0.82,-0.59,-0.44,inactive
CRYBG1,1,-0.69,-0.71,-0.87,-0.48,inactive
